We go through 3 compounds from patent US8834852B2, “Composition for oral cavity” (Kao Corporation, priority 2004, dated 2014).

The data set relates to plaque suspension. As to the kind of experiment: pH change of plaque suspension (acid generation by decomposition). Type of data set: cell-based. To be noted: 0.9% (wt/vol %) inhibitor in 5 wt. % plaque suspension, pH adjusted to 7, 37° C.
For the compound `CCCCCCCCO[C@@H]1O[C@H](CO)[C@H](O)[C@H](O)[C@H]1O` [β-octyl galactoside], the “pH change of the plaque suspension” value is recorded as “almost no pH change was observed”.

On to `OC[C@H]1O[C@@H](O[C@H]2[C@H](O)[C@@H](O)C(O)O[C@@H]2CO)[C@H](O)[C@@H](O)[C@H]1O` (stereo partly drawn) [Lactose, lactose], for which the “pH change of the plaque suspension” value is reported as “a pH decrease was observed”.

With `O=C[C@H](O)[C@@H](O)[C@@H](O)[C@H](O)CO` [Galactose, galactose], the “pH change of the plaque suspension” value is “a pH decrease was observed”.
